Assay: peptide synthesis
Settings: late stage modification step

AAVALMOX↓SAHHYAYR
step yield: >99%
